Data set [1] deals with PfSIP2-N-HIS_A (Plasmodium falciparum 3D7) (UniProt C6KSN9). Put plainly: competition with a labelled probe. Particulars: details not given; protein in a lysate after overexpression; protein details: C-terminal 6xHis; flanks not given.
Data set [2] addresses PfSIP2-N-HIS_B (Plasmodium falciparum 3D7) (UniProt C6KSN9). Nature of the data set: EMSA. The note with it: details not given; protein in a lysate after overexpression; protein details: C-terminal 6xHis; flanks not given. On the technique in general: A gel shift assay detects complexes by their altered migration in electrophoresis.
For data set [3], the target named is SIP2-AP2_12 (Plasmodium falciparum 3D7) (UniProt C6KSN9). Put plainly: EMSA. The note with it: details not given; protein in a lysate after overexpression; protein details: N-terminal GST; flanks not given.
Data set [4] concerns the target PfSIP2-N-Ty (Plasmodium falciparum 3D7) (UniProt W7K889). Put plainly: pull-down. The note with it: 5' biotin on strand 1; protein in a lysate after overexpression; protein details: C-terminal 2xTy; label: biotin.
Data set [5] has as its target PfSIP2-N-Ty (Plasmodium falciparum 3D7) (UniProt C6KSN9). Nature of the data set: pull-down. The note with it: affinity binding buffer: 20 mM HEPES pH 7.9, 100 mM KCl, 1 mM EDTA, 2 mM DTT, 2 mM MgCl2, 0.025 mM ZnCl2; nonspecific competitor salmon sperm DNA; protein in a lysate after overexpression; protein details: C-terminal 2xTy; label: 5' biotin on strand 1; letters put together from the description.

Where cells or extracts were used, other partners may take part. For some assays here: For at least one entry, the source does not settle the construct or the ends of the probe.

Regarding “AAGGTGCACACTGGTGCATT (double strand) [rhoph3]”, the binding result in data set [1] is on record as “binds”.

Consider “ATTGTGCATAGTCGTGCGAA (double strand) [M2.C1]”, for which the binding result in data set [1] is “binds”. As to “ATTGTGCATAGTGGTGCGAA (double strand) [SPE2]”, the binding result in data set [1], in data set [2] and in data set [3] was “binds” throughout. In the case of “ATTCTGCATAGTGGTGCGAA (double strand) [M1.C2]”, in data set [1], the binding result is given as “binds”. For “GACTTTATTGTGCATAGTGGTGCGATATAG (double strand) [SPE2 pull-down oligo]”, the binding result in data set [4] and in data set [5] was “binds” each time.
